Where two headings read alike, the source gives them in different places. A value given as a limit tells only on which side of the number the result lay.

One series concerns HIV-1 Bal. It is filed as cell-based. As to conditions: B-R5, TZM-bl cells, 48 h. As for the experimental part: (§1) The IC50 of the various mCD4-conjugates were measured in TZM-bl cells (NIH AIDS Reagent Program, Germantown, MD 20874, US). This cell line expresses high densities of CD4, CCR5 and CXCR4. It contains a luciferase reporter gene under control of HIV LTR, which will be transcribed and translated into luciferase protein, if the cells get infected with HIV and start producing Tat. Briefly, 50 μl of TZM-bl cells (1 × 10^5 cells/mL) supplemented with 30 μg/mL DEAE dextran were incubated with a 50 μl of a 10-fold serial dilution of the compounds under investigation in 96-well flat bottom plates, prior to inoculation with 50 μl of various viruses (see Tables & and 2; 50, 100 or 200 TCID50 was used depending on the virus). As a positive control, 50 μl of compound-free medium was used and as a negative control, 100 μl of medium was added to 100 μl of TZM-bl cells. All conditions were done in triplicates. The plates were incubated for 48 hours (37 °C, 5% CO2). Subsequently, 120 μL of supernatants were removed, 75 μl of the luciferase substrate Steadylite (Perkin Elmer, Life Sciences, Zaventem, Belgium) were added to the wells and the plates were incubated at room temperature on an orbital shaker for 10 minutes. Next, the luciferase activity was measured using a TriStar LB941 luminometer (Berthold Technologies GmbH & Co. KG., Bad Wildbad, Germany) and expressed in relative light units (RLU) as a percentage of positive control wells. IC50 were calculated in GraphPad Prism 5.03 using non-linear regression (GraphPad Software, San Diego, CA, USA).

In another series the test system is HIV-1 Ca10-3 (CRF01). It is filed as cell-based. As to conditions: Table 1; AE-X4; TZM-bl cells, 48 h, luciferase; means of two experiments. On the procedure: as §1
In a further series the test system is HIV-1 IIIB. It is filed as cell-based. Particulars: B-X4, TZM-bl cells, 48 h. On the procedure: as §1
For the next series, the system named is HIV-1 MN. It is filed as cell-based. As to conditions: Table 1; B-X4; TZM-bl cells, 48 h, luciferase; means of two experiments. As for the experimental part: as §1
The test system of a further series is HIV-1 MP568 (CRF02). It is filed as cell-based. Particulars: Table 1; AG-R5; TZM-bl cells, 48 h, luciferase; means of two experiments. On the procedure:
as §1

For another series, the system named is HIV-1 SF162. The format is cell-based. Particulars: Table 1; B-R5; TZM-bl cells, 48 h, luciferase; means of two experiments. On the procedure: as §1
The test system of the next series is HIV-1 VI1888 (CRF01). It is filed as cell-based. As to conditions: Table 1; AE-R5; TZM-bl cells, 48 h, luciferase; means of two experiments. As for the experimental part: as §1
The test system of the next series is HIV-1 VI820. It is filed as cell-based. As to conditions: Table 1; A-X4R5; TZM-bl cells, 48 h, luciferase; means of two experiments. As for the experimental part: as §1
For the next series, the system named is HIV-1 VI824. The format is cell-based. As to conditions: Table 1; D-R5; TZM-bl cells, 48 h, luciferase; means of two experiments. On the procedure:
as §1

Another series deals with HIV-1 VI829. It is filed as cell-based. Particulars: Table 1; C-R5; TZM-bl cells, 48 h, luciferase; means of two experiments. As for the experimental part: as §1
The test system of the next series is HIV-1 p246F10. It is filed as cell-based. As to conditions: Table 1; T/F C-R5; TZM-bl cells, 48 h, luciferase; means of two experiments. On the procedure: as §1
A further series concerns HIV-1 pREJO.c/2864 cl2. The format is cell-based. Particulars: Table 1; T/F B-R5; TZM-bl cells, 48 h, luciferase; means of two experiments. As for the experimental part: as §1
In a further series the test system is HIV-1 pTHRO.c/2626. The format is cell-based. Particulars: Table 1; T/F B-R5; TZM-bl cells, 48 h, luciferase; means of two experiments. As for the experimental part:
as §1

For the next series, the system named is HIV-1 pWITO.c/2474. The format is cell-based. Particulars: Table 1; T/F B-R5; TZM-bl cells, 48 h, luciferase; means of two experiments. On the procedure: as §1
Another series has as its system HIV-1 pZM247Fv2. The format is cell-based. Particulars: Table 1; T/F C-R5; TZM-bl cells, 48 h, luciferase; means of two experiments. On the procedure:
as §1

The next series deals with SHIV162P3. It is filed as cell-based, SHIV. As to conditions: Table 1; B-R5; TZM-bl cells, 48 h, luciferase; means of two experiments. On the procedure: as §1
The subject of a further series is TZM-bl cells. Briefly: WST-1 cytotoxicity assay. The format is cell-based. Particulars: Table 1, 50% cytotoxic concentration, WST-1, 48 h. On the procedure: The water soluble tetrazolium-1 (WST-1) cell proliferation assay is based on the cleavage of the tetrazolium salt WST-1 to a formazan dye by a complex cellular mechanism. Because this bioreduction is dependent on the glycolytic production of NAD(P)H in viable cells, the amount of formazan dye formed is correlates directly to the number of viable cells in a culture. Quantification is done by measuring absorbance at 450 nm in a multiwell plate reader. TZMbl cells (10^4 cells/well) were plated in a 96-well plate and a serial dilution of compound was added. 48 h later, cell proliferation reagent was added and cell viability was measured compared to untreated control cultures. Cell viability was plotted against the compound concentration and non-linear regression analysis was performed to calculate the 50% cytotoxic concentration (CC50).
(In general: Formazan colour is commonly taken as a measure of viable cells.)

The test system of a further series is HIV-1 NL4.3. It is filed as cell-based. As to conditions: primary CD4 T cells infected with NL4.3, co-culture with autologous target cells, Gag+ targets by flow cytometry. As for the experimental part:
Primary CD4^+ T cells were purified from human peripheral blood by positive selection (Miltenyi). About 98% of cells were CD4^+CD3^+. For activation, primary T cells were treated with PHA (1 μg/ml) for 24 h and then cultured with IL-2 (50 IU/ml) for 3–5 days before use. Primary cells were infected with HIV-1 NL4-3 and NLAD8 as described. Donor cells were used a few days later, when about 20% of the cells were Gag^+. Target cells were labeled with FarRed (2.5 μM; Molecular Probes). Donors were preincubated 1 h with the indicated doses of compounds. Donor and target cells were then mixed at a 1:2 ratio in 96-well plates at a final a concentration of 1.5 × 10^6/ml in 200 μl, in duplicates. After 48 or 72 h, cells were stained for intracellular Gag (KC57 mAb, Coulter) and analyzed by flow cytometry. When used, mCD4 or mCD4-conjugates were added 1 h before coculture. Measurement of the levels of Env epitopes at the surface of infected cells with 3BNC117 was performed by flow cytometry as previously described.
(A flow cytometer gives signals particle by particle.)

[1] abbreviates: Table 1, luciferase, means of two experiments.

With `CC(C)C[C@@H]1NC(=O)CNC(=O)[C@H](CC(C)C)NC(=O)[C@H](CO)NC(=O)[C@H](CO)NC(=O)[C@@H]2CSSC[C@@H](C(=O)N[C@H](C(N)=O)C(C)C)NC(=O)[C@H](C)NC(=O)[C@@H]3CSSC[C@H](NC(=O)[C@H](CCCCN)NC(=O)[C@H](Cc4c[nH]cn4)NC(=O)[C@H](CC(C)C)NC(=O)[C@H](CC(N)=O)NC(=O)CCSSC[C@H](NC(=O)[C@H](CCCNC(=N)N)NC(=O)CNC(=O)[C@H](CC(C)C)NC1=O)C(=O)N[C@@H](C)C(=O)NCC(=O)N[C@@H](CO)C(=O)N[C@@H](Cc1ccc(-c4ccccc4)cc1)C(=O)N3)C(=O)N[C@@H](CCC(N)=O)C(=O)N[C@@H](CC(C)C)C(=O)N[C@@H](CCCNC(=N)N)C(=O)N2` [mCD4.1], the IC50 was found to be 237 nM with HIV-1 Bal (setting [1]); 96 nM with HIV-1 Ca10-3 (CRF01); 29 nM in the series with HIV-1 IIIB (setting [1]); 20 nM in the series with HIV-1 MN; 7930 nM with HIV-1 MP568 (CRF02); 130 nM in the series with HIV-1 SF162. Moreover, the IC50 with HIV-1 VI1888 (CRF01) is greater than 10000 nM; with HIV-1 VI820, 1690 nM; in the series on HIV-1 VI824, 3180 nM; in the series on HIV-1 VI829, greater than 10000 nM; in the series with HIV-1 p246F10, greater than 10000 nM; in the series with HIV-1 pREJO.c/2864 cl2, 108 nM. For the same molecule, the half-inhibitory concentration (IC50) with HIV-1 pTHRO.c/2626 is 1180 nM; in the series with HIV-1 pWITO.c/2474, 1120 nM; in the series on HIV-1 pZM247Fv2, greater than 10000 nM; with SHIV162P3, 5370 nM; in the series with HIV-1 NL4.3 (48 h, read-out: IC50 (nM) 48h, cell-cell transmission), 91.5 nM; in the series on HIV-1 NL4.3 (72 h, read-out: IC50 (nM) 72h, cell-cell transmission) it was 59.6 nM. For the same molecule, the CC50 with TZM-bl cells is recorded as 45525 nM.
With `CC(C)C[C@@H]1NC(=O)CNC(=O)[C@H](CC(C)C)NC(=O)[C@H](CO)NC(=O)[C@H](CCCCNC(=O)CCOCCOCCNC(=O)CCN2C(=O)CC(SCCC(=O)NCCCC(=O)N[C@@H](CO)C(=O)N[C@@H](Cc3ccc(OS(=O)(=O)O)cc3)C(=O)N[C@@H](CC(=O)O)C(=O)N[C@@H](Cc3ccc(OS(=O)(=O)O)cc3)C(=O)N[C@@H](CO)C(=O)N[C@@H](Cc3ccc(OS(=O)(=O)O)cc3)C(=O)N[C@@H](CC(=O)O)C(=O)N[C@@H](Cc3ccc(OS(=O)(=O)O)cc3)C(=O)N[C@@H](CO)C(=O)N[C@@H](Cc3ccc(OS(=O)(=O)O)cc3)C(=O)N[C@@H](CC(=O)O)C(=O)N[C@@H](Cc3ccc(OS(=O)(=O)O)cc3)C(=O)N[C@@H](CO)C(=O)O)C2=O)NC(=O)[C@@H]2CSSC[C@@H](C(=O)N[C@H](C(N)=O)C(C)C)NC(=O)[C@H](C)NC(=O)[C@@H]3CSSC[C@H](NC(=O)[C@H](Cc4ccccc4)NC(=O)[C@H](Cc4c[nH]cn4)NC(=O)[C@H](CC(C)C)NC(=O)[C@H](CC(N)=O)NC(=O)CCSSC[C@H](NC(=O)[C@H](CCCNC(=N)N)NC(=O)CNC(=O)[C@H](CC(C)C)NC1=O)C(=O)N[C@@H](C)C(=O)N1CCC[C@@H]1C(=O)N[C@@H]([C@@H](C)O)C(=O)N[C@@H](Cc1ccc(OCC4CCCCC4)cc1)C(=O)N3)C(=O)N[C@@H](CCC(N)=O)C(=O)N[C@@H](CC(C)C)C(=O)N[C@@H](CCCNC(=N)N)C(=O)N2` (stereo partly drawn) [M48U1-PS1], the results for the IC50 with HIV-1 Bal (Supplementary Table SI) and with HIV-1 IIIB (Supplementary Table SI) were 0.13 nM and 0.02 nM, respectively.

What is called IC50 is the concentration that gives 50% inhibition. In general, CC50 refers to the concentration giving 50% cytotoxicity. A higher CC50 goes with lower toxicity to the cells.

These data come from paper PMC5056392, “CD4-mimetic sulfopeptide conjugates display sub-nanomolar anti-HIV-1 activity and protect macaques against a SHIV162P3 vaginal challenge” (Scientific Reports, 2016).
